In US9221875B2, “Amphiphilic peptides for treatment of keratitis” (Agency for Science, Technology and Research, priority 2013, dated 2015):
Peptide text beside a SMILES is read from it.

Test system: 5 microorganisms tested (S. epidermidis, S. aureus, E. coli, P. aeruginosa, C. albicans)
Type: cell-based
Procedure: Red blood cells suspension incubated with PBS was used as negative control.

Compound | SI, calculated as 2500 divided by 250 mg L^−1 (footnote d) | SI, selectivity index (HC10 / GM) (rat red blood cells)
CC(C)[C@H](N)C(=O)N[C@@H](CCCNC(=N)N)C(=O)N[C@H](C(=O)N[C@@H](CCCCN)C(=O)N[C@H](C(=O)N[C@@H](CCCNC(=N)N)C(=O)N[C@H](C(=O)N[C@@H](CCCCN)C(N)=O)C(C)C)C(C)C)C(C)C [(VRVK)2-NH2] (H-VRVKVRVK-NH2; N-terminus assumed) | >10^d | 
Polymyxin B [reference compound] |  | >60.4
